Kdimer by position in the HIV-1 leader RNA

The measurements come from Ye et al. 2022 (doi:10.1038/s41594-022-00746-2).

RNA: 5' end of the HIV-1 NL4-3 genome, made in vitro. Positions 1-437 read:
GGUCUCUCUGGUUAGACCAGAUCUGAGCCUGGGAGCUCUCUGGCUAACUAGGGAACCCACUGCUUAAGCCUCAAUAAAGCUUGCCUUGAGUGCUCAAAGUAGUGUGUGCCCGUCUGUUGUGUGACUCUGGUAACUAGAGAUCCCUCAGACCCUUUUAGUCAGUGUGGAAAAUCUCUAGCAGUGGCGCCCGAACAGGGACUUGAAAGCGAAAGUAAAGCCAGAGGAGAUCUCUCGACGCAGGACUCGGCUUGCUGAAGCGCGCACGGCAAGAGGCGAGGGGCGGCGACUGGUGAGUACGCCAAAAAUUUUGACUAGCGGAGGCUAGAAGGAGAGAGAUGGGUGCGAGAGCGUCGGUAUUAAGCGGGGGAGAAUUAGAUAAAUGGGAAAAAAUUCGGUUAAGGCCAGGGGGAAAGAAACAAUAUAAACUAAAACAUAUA

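Mutant RNA libraries with 1G, 2G or 3G starts, with or without cap, were folded at 37 °C for 30 min. High salt was 300 mM KCl and 5 mM MgCl2, low salt 40 mM KCl and 0.1 mM MgCl2; monomer and dimer were parted on a native gel. Mutation frequencies in the two bands give Kdimer.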

Values are log2 Kdimer, the median over the changes at each position: higher means that changes there hinder dimer formation, below 0 that they favour it. One numbering serves 1G, 2G and 3G. A position is written with its base where known. The source gives no letters past position 437.

| position | domain | 2G uncapped high-salt | 1G capped low-salt | 3G capped high-salt | 1G capped high-salt |
|---|---|---|---|---|---|
| 458 | none | 0.01 | 0.01 | 0.06 | 0.05 |
| 459 | none | 0.10 | -0.09 | 0.09 | 0.04 |
| 460 | none | 0.03 | 0.06 | 0.07 | -0.04 |
| 461 | none | 0.04 | 0.08 | -0.03 | 0.03 |
| 462 | none | 0.12 | -0.01 | -0.10 | 0.05 |
| 463 | none | 0.19 | 0.04 | -0.10 | 0.08 |
| 464 | none | 0.07 | -0.14 | -0.11 | 0.02 |
| 465 | none | 0.02 | -0.06 | -0.16 | -0.04 |
| 466 | none | 0.03 | 0.00 | 0.11 | 0.03 |
| 467 | none | -0.07 | 0.02 | 0.02 | -0.01 |
| 468 | none | -0.03 | 0.03 | 0.01 | 0.10 |
| 469 | none | 0.01 | -0.14 | -0.01 | -0.12 |
| 470 | none | 0.00 | 0.01 | 0.08 | 0.09 |
| 471 | none | 0.07 | -0.17 | 0.12 | 0.06 |
| 472 | none | 0.01 | 0.00 | 0.05 | 0.02 |
| 473 | none | -0.07 | -0.04 | 0.11 | 0.07 |
| 474 | none | 0.01 | 0.00 | -0.07 | -0.03 |
| 475 | none | -0.11 | 0.00 | 0.08 | 0.03 |
| 476 | none | 0.00 | -0.07 | -0.01 | -0.01 |
| 477 | none | -0.09 | -0.02 | -0.08 | -0.14 |
| 478 | none | -0.05 | -0.01 | -0.08 | -0.06 |
| 479 | none | -0.05 | 0.03 | -0.10 | -0.14 |
| 480 | none | -0.12 | 0.05 | 0.17 | -0.08 |
| 481 | none | -0.10 | 0.04 | -0.18 | -0.23 |
| 482 | none | 0.01 | -0.07 | 0.02 | -0.06 |
| 483 | none | 0.05 | -0.02 | 0.03 | -0.05 |
| 484 | none | -0.07 | -0.07 | 0.06 | -0.07 |
| 485 | none | -0.04 | 0.02 | -0.01 | -0.05 |
| 486 | none | 0.01 | -0.05 | 0.00 | -0.01 |
| 487 | none | 0.05 | -0.03 | 0.08 | -0.09 |
| 488 | none | 0.08 | 0.10 | 0.00 | -0.02 |
| 489 | none | 0.04 | 0.04 | 0.17 | 0.10 |
| 490 | none | -0.01 | 0.02 | -0.04 | 0.03 |
| 491 | none | 0.06 | -0.08 | -0.04 | 0.12 |
| 492 | none | 0.03 | 0.09 | -0.09 | 0.04 |
| 493 | none | 0.07 | -0.01 | 0.00 | 0.11 |
| 494 | none | 0.08 | -0.02 | 0.08 | -0.01 |
| 495 | none | -0.01 | -0.02 | -0.03 | -0.04 |

5 of these entries, quoted again:

{"position": "469", "domain": "none", "2G uncapped high-salt": 0.01, "1G capped low-salt": -0.14, "3G capped high-salt": -0.01, "1G capped high-salt": -0.12}
{"position": "491", "domain": "none", "2G uncapped high-salt": 0.06, "1G capped low-salt": -0.08, "3G capped high-salt": -0.04, "1G capped high-salt": 0.12}
{"position": "475", "domain": "none", "2G uncapped high-salt": -0.11, "1G capped low-salt": 0.00, "3G capped high-salt": 0.08, "1G capped high-salt": 0.03}
{"position": "488", "domain": "none", "2G uncapped high-salt": 0.08, "1G capped low-salt": 0.10, "3G capped high-salt": 0.00, "1G capped high-salt": -0.02}
{"position": "493", "domain": "none", "2G uncapped high-salt": 0.07, "1G capped low-salt": -0.01, "3G capped high-salt": 0.00, "1G capped high-salt": 0.11}